Measured values taken from publication PMC7993394 (Journal of Enzyme Inhibition and Medicinal Chemistry, 2021).

What was measured:
[1] = test system: Nc1ncnc2c1ncn2[C@@H]1O[C@H](COP(=O)(O)OP(=O)(O)OP(=O)(O)O)[C@@H](O)[C@H]1O; test: purified protein; conditions: pH 7.5
[2] = test system: O=P(O)(O)O[C@@H]1O[C@H](CO)[C@@H](O)[C@H](O)[C@H]1O; test: purified protein; conditions: pH 7.5

Substance: BpHldC (Burkholderia pseudomallei K96243)
- K0.5 [1]: 0.23 ± 0.02 mM
- K0.5 [2]: 0.68 ± 0.07 mM
